From patent publication US6077934A (priority 1998, dated 2000)

Test system: Swiss Webster mice
Assay: Bioassay: intracranial injection into Swiss Webster mice (11 days old)

NCC(=O)N[C@H]1CSSC[C@@H](C(N)=O)NC(=O)[C@H](Cc2c[nH]c3ccccc23)NC(=O)[C@@H]2CCCN2C(=O)[C@H](CCC(N)=O)NC(=O)[C@@H](Cc2c[nH]c3ccccc23)NC(=O)[C@@H]2C[C@@H](O)CN2C1=O
symptomatology after intracranial injection (native peptide purified from venom, injected intracranially into mice): "stiff-tail syndrome" | symptomatology after intracranial injection (synthetic D-Trp-containing peptide, 15 nmol, injected into mice): stiff tail syndrome, paralysis of extremities, circular motion and barrel-rolling
